Pooled drug test results. Numbers come from NIAID ChemDB, via PubChem.

Common to all: tests in culture; species: Varicella zoster virus; cell line: HEL; read by: cytopathic effect; read-out: EC50

Rows are shuffled and stem from different studies.

compound,strain or isolate,value
CC1(C)[C@@H](CO)CC[C@@]1(C)Cn1cnc2c(N)ncnc21,YS,>50 µg/mL
CCCCOc1ccc(-c2cc3cn([C@H]4C[C@H](O)[C@@H](CO)O4)c(=O)nc3o2)cc1,07/1 (TK-),>50 µM
Nc1ccn(C[C@@H](CO)OCP(=O)(O)O)c(=O)n1,Oka BVaraU-resistant,0.1 µM
Cc1cn(CCCC(O)CF)c(=O)[nH]c1=O,YS/R (TK-),>50 µg/mL
Nc1nc2c(ncn2CCC(CO)CO)c(=O)[nH]1,Oka PMEDAP-resistant,2 µM
CCOc1ccc(-c2cc3cn([C@H]4C[C@H](O)[C@@H](CO)O4)c(=O)nc3o2)cc1,07/1 (TK-),>50 µM
Nc1ccn(C[C@@H](CO)OCP(=O)(O)O)c(=O)n1,YS/R (TK-),0.08 µM
Nc1ncnc2c1ncn2C[C@@H](CO)OCP(=O)(O)O,07/1 (TK-),0.004 µg/mL
CO[C@H](CO)[C@@H](O)CCn1ccc(N)nc1=O,YS/R (TK-),>400 µg/mL
Nc1ccn(CCCC(O)CF)c(=O)n1,OKA,>50 µg/mL
CCCCCCCC/C=C/CCCCCCCC(=O)O,OKA,>100 µM
CC1(C)[C@@H](CO)CC[C@@]1(C)Cn1cc(I)c(=O)[nH]c1=O,07/1 (TK-),>50 µg/mL
O=c1[nH]c(=O)n([C@H]2C[C@H](O)[C@@H](CO)O2)cc1/C=C/Br,OKA,0.0074 µM
Nc1nc(F)nc2c1ncn2[C@@H]1C=C(CO)[C@@H](O)[C@H]1O,07/1 YS/R (TK-),7 µg/mL
O=c1[nH]c(=O)n([C@@H]2O[C@H](CO)[C@@H](O)[C@@H]2O)cc1/C=C/Br,Oka PMEDAP-resistant,0.0001 µM
CO[C@H](CO)[C@@H](O)CCn1cnc2c(N)ncnc21,YS,>400 µg/mL
CCCCCOc1ccc(-c2cc3cn([C@H]4C[C@H](O)[C@@H](CO)O4)c(=O)nc3o2)cc1,OKA,<0.5 µM
O=c1[nH]c(=O)n([C@H]2C[C@H](O)[C@@H](CO)O2)cc1/C=C/Br,YS (TK-),96 µM
Cc1cn(C(CF)CCCO)c(=O)[nH]c1=O,OKA,>50 µg/mL
CO[C@H](CO)[C@@H](O)CCn1cc(C)c(=O)[nH]c1=O,YS/R (TK-),>400 µg/mL
O=C(O)P(=O)(O)O,Oka PMEA-resistant,234.1 µM
Nc1nc2c(ncn2CC[C@H](O)CCO)c(=O)[nH]1,YS,>400 µg/mL
CC1(C)[C@@H](CO)CC[C@@]1(C)Cn1nnc2c(=O)[nH]cnc21,OKA,>50 µg/mL
CCCOc1ccc(-c2cc3cn([C@H]4C[C@H](O)[C@@H](CO)O4)c(=O)nc3o2)cc1,07/1 (TK-),>50 µM
COC(=O)[C@H](C)NP(=O)(OC[C@H]1O[C@@H](n2cc(/C=C/Br)c(=O)[nH]c2=O)C[C@@H]1O)Oc1ccc(Cl)cc1,07 (TK-),>50 µM
CC1(C)[C@@H](CO)CC[C@@]1(C)Cn1ccc(=O)[nH]c1=O,07/1 (TK-),>50 µg/mL
Nc1nc2c(ncn2COC(CO)CO)c(=O)[nH]1,Oka BVDU-resistant,5.8 µM
Nc1ncnc2c1ncn2C[C@H](O)CO,07/1 (TK-),200 µg/mL

Repeating the first 2 entries:

compound,strain or isolate,value
CC1(C)[C@@H](CO)CC[C@@]1(C)Cn1cnc2c(N)ncnc21,YS,>50 µg/mL
CCCCOc1ccc(-c2cc3cn([C@H]4C[C@H](O)[C@@H](CO)O4)c(=O)nc3o2)cc1,07/1 (TK-),>50 µM

ECn is the concentration giving n% inhibition of infection, replication or growth.